The subject of the data set is NtrC-6xHis. Description: EMSA. Conditions: 0-16 uM NtrC, poly(dI-dC) 50 ng/uL, BSA, 40 min at 4 C, pH not stated, recombinant protein, residues 1-470, protein details: C-terminal 6xHis, label: biotin end label, probe letters rebuilt from the primers and the genome. (In general: In EMSA bound probe runs differently from free probe, usually more slowly.)

For at least one entry, the source does not settle the construct or the ends of the probe.

On to “CAGGATCACAAACATCCTCCGCAAACAAGTATTGCAGAGTCCCTTTGTGATCGCTTTCACGGAGCATAAAAAGGGTTATCCAAAGGTCATTGCACCAACATGGTGCTTAATGTTTCCATTGAAGCACTATATTGGTGCAACATTCACATCGTGGTGCAGCCCTTTTGCACGATGGTGCGCATGATAACGCCTTTTAGGG (double strand) [glnAP2 promoter probe]”, for which the binding result was “binds”.

The record behind these values is publication PMC4287178.
